We go through 2 molecules from patent US20230108186A1, “NITRIC OXIDE-RELEASING ANTIBACTERIAL COMPOUNDS, FORMULATIONS, AND METHODS PERTAINING THERETO” (published 2023).

One series has as its system PAK. The experiment in a line: pH vs efficacy against PAK / pH dependence of NO release. The conditions noted are these: data not shown.
The test system of series [1] is P. aeruginosa (PAK), strain N0049. Briefly: MIC/MBC of samples of varying purity (MD3 relative to MD2).
The subject of the next series is P. aeruginosa. The experiment in a line: MIC/MBC against P. aeruginosa, Tables 5 and 6. The conditions noted are these: MTDD (NCT-19-096) mixed with β-cyclodextrin.

By MBC is commonly meant the lowest tested concentration that kills the bacteria rather than only halting them. The MIC is the smallest concentration in the dilution series that meets the test's criterion for growth inhibition. Take `[O-]/[N+](=N\O)C(/[N+]([O-])=N/O)/[N+]([O-])=N/O`: the “rate of NO release, pH comparison” value with PAK (pH of around 6.5 vs around 7.5) is “higher rates of NO-release at a pH of around 6.5 than around 7.5”. Moreover, the NO release entry in the series with PAK (pH of around 8.4) is given as “relatively little NO release”. Further, in series [1], the MBC turned out to be 125 µg/mL and the MIC worked out at 62.5 µg/mL.
Turning to β-cyclodextrin, in the series with P. aeruginosa, the “MIC against P. aeruginosa” value is more than 6250 µg/mL.
